Measured values from several laboratories, pooled; numbers as filed in NIAID ChemDB.

All rows: target-level tests; species: Candida albicans

ICn is the concentration giving n% inhibition.

SMILES	target	strain	read-out	result
O=C(Nc1nc2ccc(NC(=O)[C@H]3CCC[C@@H](NCc4ccc5ccccc5c4)C3)cc2s1)C1CCCC1	N-myristoyltransferase	-	IC50	>0.01 µM
CC[C@H](C)[C@H](NC(=O)[C@H](Cc1ccccc1)C[C@@H](O)[C@H](Cc1ccccc1)NC(=O)OC(C)(C)C)C(=O)N[C@@H](Cc1ccccc1)C(N)=O	Aspartic proteinase	-	IC50	>100 µM
CC(C)C(=O)[O-]	Beta-carbonic anhydrase	Nce103	Ki	0.98 µM
CN(C)C(=O)c1ccc2nc(NC(=O)C3CCC(CN)CC3)sc2c1	N-myristoyltransferase	-	IC50	0.01 µM
COc1ccc2nc(NC(=O)C(=O)C(C(=O)c3ccc(-c4ccccc4)cc3)C3OC(=O)c4ccccc43)sc2c1	Farnesyl-protein transferase	-	IC50	15 µM
CC[C@H](C)[C@H](NC(=O)[C@@H](Cc1ccccc1)C[C@@H](O)[C@H](Cc1ccccc1)NC(=O)OC(C)(C)C)C(=O)N[C@@H](Cc1ccccc1)C(N)=O	Aspartic proteinase	-	IC50	>100 µM
O=C(Nc1nc2ccc(NC(=O)[C@@H]3CCC[C@@H](NCc4ccc5ccccc5c4)C3)cc2s1)C1CCCC1	N-myristoyltransferase	-	IC50	0.0012 µM
NC(=O)[C@@H](Cc1cnc[nH]1)NC(=O)[C@@H](Cc1cccc2ccccc12)NC(=O)C1Cc2ccccc2C1	Geranylgeranyltransferase	-	IC50	>3 µM
O=C(Nc1nc2ccc(NC(=O)[C@@H]3CCC[C@H](NCc4cccc5ccccc45)C3)cc2s1)C1CCCC1	N-myristoyltransferase	-	IC50	0.00049 µM
CC(C)[C@@H](NC(=O)c1cc(=O)c2ccccc2[nH]1)C(=O)N[C@@H](Cc1ccccc1)C[C@@H](O)[C@H](Cc1ccccc1)NC(=O)[C@H](NC(=O)c1cc(=O)c2ccccc2[nH]1)C(C)C	Secreted aspartic protease	-	IC50	12 µM
Nc1ncc(OCCc2ccc(Cl)c(Cl)c2)c(N)n1	Dihydrofolate reductase	-	IC50	3.719 µM
Cc1cccc(C)c1OCC(=O)N[C@@H](Cc1ccccc1)C[C@@H](O)[C@H](Cc1ccccc1)NC(=O)[C@@H](NC(=O)c1cc(=O)c2ccccc2[nH]1)c1cccs1	Secreted aspartic protease	-	IC50	83 µM
CCC(C)CC(C)CCCCCCCCC(=O)N[C@H]1C[C@@H](O)[C@@H](O)NC(=O)[C@@H]2[C@@H](O)CCN2C(=O)[C@H]([C@H](O)CCN)NC(=O)[C@H]([C@H](O)Cc2ccc(O)cc2)NC(=O)[C@@H]2C[C@@H](O)CN2C(=O)[C@H]([C@@H](C)O)NC1=O	Glucan synthase	MY1055	IC50	0.01 µM
Nc1ncc(OCCc2c(Cl)cccc2Cl)c(N)n1	Dihydrofolate reductase	-	IC50	3.102 µM
CCC(C)CC(C)CCCCCCCCC(=O)N[C@H]1C[C@@H](O)[C@@H](O)NC(=O)[C@@H]2[C@@H](O)CCN2C(=O)[C@H]([C@H](O)CC#N)NC(=O)[C@H]([C@H](O)Cc2ccc(O)cc2)NC(=O)[C@@H]2C[C@@H](O)CN2C(=O)[C@H]([C@@H](C)O)NC1=O	Glucan synthase	MY1055	IC50	0.1 µM
CC(C)=CCc1c(O)cc(O)c2oc3cc(O)cc(O)c3c(=O)c12	Aspartic protease	-	IC50	15 µg/mL
C[C@H](N)C(=O)N[C@@H](C(=O)O)[C@H]1O[C@@H](n2ccc(=O)[nH]c2=O)[C@H](O)[C@@H]1O	Chitin synthase	-	IC50	>100 µM
O=Cc1ccc(OCC(=O)N[C@@H](Cc2ccccc2)C[C@H](O)[C@H](Cc2ccccc2)NC(=O)COc2ccc(C=O)cc2)cc1	Aspartic protease SAP2	H12	IC50	5 µM
O=C(Nc1nc2ccc(NC(=O)[C@H]3CCC[C@H](NCc4ccc5ccccc5c4)C3)cc2s1)C1CCCC1	N-myristoyltransferase	-	IC50	0.034 µM
O=C(COc1ccccc1O)N[C@@H](Cc1ccccc1)C[C@@H](O)[C@H](Cc1ccccc1)NC(=O)COc1ccccc1O	Aspartic protease SAP2	H12	IC50	>50 µM
O=C(CCNCc1ccc(-c2ccccc2)cc1)Nc1ccc2nc(NC(=O)C3CCCCC3)sc2c1	N-myristoyltransferase	-	IC50	0.078 µM
Nc1ncc(OCCc2ccccc2)c(N)n1	Dihydrofolate reductase	-	IC50	1.237 µM
CC(=CCC/C=C(\C)CCC=C(C)CCCN(C)C)CC/C=C(\C)CCC1OC1(C)C	Oxidosqualene cyclase (microsomal)	-	IC50	8 µM
CCOc1c(Cl)cc2nc(S(N)(=O)=O)sc2c1Cl	Geranylgeranyl-protein transferase I	-	IC50	0.11 µM
C=C(C)[C@@H]1CC[C@]2(C(=O)O)CC[C@]3(C)[C@H](CC[C@@H]4[C@@]5(C)CC[C@H](O)C(C)(C)[C@@H]5CC[C@]43C)[C@@H]12	Aspartic protease	-	IC50	6.5 µg/mL
Cc1cc(C)c2nc(-c3ccc(Br)cc3)cc(C(=O)O)c2c1	Prolyl-tRNA synthetase	-	IC50	0.14 µM
CCC1CCC(C(=O)Nc2nc3ccc(C(=O)N(C)C)cc3s2)CC1	N-myristoyltransferase	-	IC50	0.042 µM
CN(C)Cc1ccc(-c2ccc(C(=O)c3ccc(Br)cc3)cc2)cc1	Oxidosqualene cyclase	-	IC50	0.1 µM
O=Cc1ccc(OCC(=O)N[C@@H](Cc2ccccc2)C[C@@H](O)[C@H](Cc2ccccc2)NC(=O)COc2ccc(C=O)cc2)cc1	Aspartic protease SAP2	H12	IC50	30 µM
COC(=O)c1ccc2nc(NC(=O)CC3CCC[C@@H](N)C3)sc2c1	N-myristoyltransferase	-	IC50	1.4 µM
O=C(COc1ccccc1)N[C@@H](Cc1ccccc1)C[C@H](O)[C@H](Cc1ccccc1)NC(=O)COc1ccccc1	Aspartic protease SAP2	H12	IC50	4 µM
CCOC(=O)c1oc2cccc(OC[C@H](O)CNC(C)(C)C)c2c1C	N-myristoyltransferase	CY1002	IC50	150 µM
CC(N)C(=O)N(C)C(C(=O)O)[C@H]1O[C@@H](n2ccc(=O)[nH]c2=O)[C@H](O)[C@@H]1O	Chitin synthase	-	IC50	>100 µM
CCOC(=O)c1oc2cccc(OC[C@@H](O)CNC(C)(C)C)c2c1C	N-myristoyltransferase	CY1002	IC50	1.1 µM
CCCCCCCC/C=C/CC/C=C/[C@H]1C[C@H]([C@](O)(CC(=O)O[C@@H](C(=O)O)[C@H](CC(=O)O)C(=O)O)C(=O)O)C(=O)O1	Geranylgeranyltransferase I	-	IC50	5 µM
CC[C@H](C)[C@H](NC(=O)[C@@H](Cc1ccccc1)C[C@H](O)[C@H](Cc1ccccc1)NC(=O)OC(C)(C)C)C(=O)N[C@@H](Cc1ccccc1)C(N)=O	Aspartic proteinase	-	IC50	>100 µM
CN(C)CCOc1ccccc1/C=N\N1CCN(C2Cc3ccccc3Sc3ccc(Cl)cc32)CC1	Geranylgeranyl-protein transferase I	-	IC50	0.17 µM
Cc1cccc(C)c1OCC(=O)N[C@@H](Cc1ccccc1)C[C@@H](O)[C@H](Cc1ccccc1)NC(=O)[C@H](NC(=O)c1cc(=O)c2ccccc2[nH]1)C(C)C	Aspartic protease SAP2	H12	IC50	140 µM
CC(C)(C)OC(=O)N[C@@H](Cc1ccccc1)[C@@H](O)C[C@H](Cc1ccccc1)C(=O)N[C@@H](CCC(=O)O)C(=O)N[C@@H](Cc1ccccc1)C(N)=O	Aspartic proteinase	-	IC50	>100 µM

Again, the opening 5 rows:

| SMILES | target | strain | read-out | result |
|---|---|---|---|---|
| O=C(Nc1nc2ccc(NC(=O)[C@H]3CCC[C@@H](NCc4ccc5ccccc5c4)C3)cc2s1)C1CCCC1 | N-myristoyltransferase | - | IC50 | >0.01 µM |
| CC[C@H](C)[C@H](NC(=O)[C@H](Cc1ccccc1)C[C@@H](O)[C@H](Cc1ccccc1)NC(=O)OC(C)(C)C)C(=O)N[C@@H](Cc1ccccc1)C(N)=O | Aspartic proteinase | - | IC50 | >100 µM |
| CC(C)C(=O)[O-] | Beta-carbonic anhydrase | Nce103 | Ki | 0.98 µM |
| CN(C)C(=O)c1ccc2nc(NC(=O)C3CCC(CN)CC3)sc2c1 | N-myristoyltransferase | - | IC50 | 0.01 µM |
| COc1ccc2nc(NC(=O)C(=O)C(C(=O)c3ccc(-c4ccccc4)cc3)C3OC(=O)c4ccccc43)sc2c1 | Farnesyl-protein transferase | - | IC50 | 15 µM |

An empty or dashed field is not shown. Rows are shuffled and stem from different studies.